Measured values published in paper PMC6700223 (Frontiers in Microbiology, 2019).
pKd: −log10 of the molar value.

By UniProt entry, the sequences of proteins in these tests, tags left out. Residues count along the entry.
UniProt P08669, 296-345 limits assumed: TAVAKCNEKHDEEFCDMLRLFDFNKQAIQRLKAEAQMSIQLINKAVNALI

Target: HR1-1 peptide (HR1 domain of LASV GP2) (Lassa virus, UniProt P08669)
Assay: Biolayer interferometry (BLI) binding of HR2-derived peptides to immobilized HR1-1 peptide
Conditions: Octet RED96, SSA biosensor, immobilized molecule HR1-1, mobile phase 30, 15, 7.5, 3.75 μM, association 300 s, dissociation 600 s

How did the pKd turn out when `CC[C@H](C)[C@H](NC(=O)[C@H](CC(=O)O)NC(=O)[C@H](CC(=O)O)NC(=O)[C@H](CO)NC(=O)[C@H](Cc1ccccc1)NC(=O)[C@H](Cc1c[nH]cn1)NC(=O)[C@@H](N)[C@@H](C)O)C(=O)N[C@@H](CCC(=O)O)C(=O)N[C@@H](CCC(N)=O)C(=O)N[C@@H](CCC(N)=O)C(=O)N[C@@H](C)C(=O)N[C@@H](CC(=O)O)C(=O)N[C@@H](CC(N)=O)C(=O)N[C@@H](CCSC)C(=O)N[C@H](C(=O)N[C@H](C(=O)N[C@@H](CCC(=O)O)C(=O)N[C@@H](CCSC)C(=O)N[C@@H](CC(C)C)C(=O)N[C@@H](CCC(N)=O)C(=O)N[C@@H](CCCCN)C(=O)N[C@@H](CCC(=O)O)C(=O)N[C@@H](Cc1ccc(O)cc1)C(=O)N[C@@H](CCSC)C(=O)N[C@@H](CCC(=O)O)C(=O)O)[C@@H](C)O)[C@@H](C)CC` [HR2-3] was run?
Its pKd is 4.17.
